Sequences of proteins named here, by UniProt entry; tags and fusion partners are left off. Residues count along the entry.
UniProt P20309, whole entry: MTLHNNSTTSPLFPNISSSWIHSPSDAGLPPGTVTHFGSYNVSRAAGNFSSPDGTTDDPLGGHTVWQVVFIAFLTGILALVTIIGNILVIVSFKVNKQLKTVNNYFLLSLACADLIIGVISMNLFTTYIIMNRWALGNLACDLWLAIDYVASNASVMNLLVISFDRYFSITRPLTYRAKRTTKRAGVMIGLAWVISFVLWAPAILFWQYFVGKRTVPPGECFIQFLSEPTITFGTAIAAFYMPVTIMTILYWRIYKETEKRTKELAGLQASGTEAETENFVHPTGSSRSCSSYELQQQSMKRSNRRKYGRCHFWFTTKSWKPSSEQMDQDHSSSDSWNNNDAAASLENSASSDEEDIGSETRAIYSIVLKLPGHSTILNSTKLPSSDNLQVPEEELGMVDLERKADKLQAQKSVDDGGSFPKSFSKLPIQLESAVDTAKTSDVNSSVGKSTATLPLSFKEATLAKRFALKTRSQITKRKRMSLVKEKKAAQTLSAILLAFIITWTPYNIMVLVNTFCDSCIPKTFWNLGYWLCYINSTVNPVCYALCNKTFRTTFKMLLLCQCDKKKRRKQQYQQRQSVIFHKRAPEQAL
UniProt P04150, whole entry: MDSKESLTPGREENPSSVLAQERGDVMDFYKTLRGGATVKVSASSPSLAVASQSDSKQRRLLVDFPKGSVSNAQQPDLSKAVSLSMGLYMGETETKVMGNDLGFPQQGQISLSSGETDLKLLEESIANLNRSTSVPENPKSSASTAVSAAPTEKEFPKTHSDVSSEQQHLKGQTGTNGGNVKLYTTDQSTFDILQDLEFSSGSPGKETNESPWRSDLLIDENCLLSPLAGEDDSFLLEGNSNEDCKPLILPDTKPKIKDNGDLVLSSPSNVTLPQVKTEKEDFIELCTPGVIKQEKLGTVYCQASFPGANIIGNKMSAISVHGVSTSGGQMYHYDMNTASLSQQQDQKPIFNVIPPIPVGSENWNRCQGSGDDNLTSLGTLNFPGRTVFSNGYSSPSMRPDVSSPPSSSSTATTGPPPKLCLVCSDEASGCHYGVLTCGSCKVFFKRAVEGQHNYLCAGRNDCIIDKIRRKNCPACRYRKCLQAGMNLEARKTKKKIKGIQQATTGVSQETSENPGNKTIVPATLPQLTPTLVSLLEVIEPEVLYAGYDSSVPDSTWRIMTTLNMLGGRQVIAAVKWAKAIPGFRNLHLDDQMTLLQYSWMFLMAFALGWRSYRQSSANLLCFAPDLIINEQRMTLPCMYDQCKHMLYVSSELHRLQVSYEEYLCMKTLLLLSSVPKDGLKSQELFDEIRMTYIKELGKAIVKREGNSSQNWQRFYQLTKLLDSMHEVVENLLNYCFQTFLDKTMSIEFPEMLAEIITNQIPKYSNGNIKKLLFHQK
UniProt Q9UBS5, 1-844 isoform 2: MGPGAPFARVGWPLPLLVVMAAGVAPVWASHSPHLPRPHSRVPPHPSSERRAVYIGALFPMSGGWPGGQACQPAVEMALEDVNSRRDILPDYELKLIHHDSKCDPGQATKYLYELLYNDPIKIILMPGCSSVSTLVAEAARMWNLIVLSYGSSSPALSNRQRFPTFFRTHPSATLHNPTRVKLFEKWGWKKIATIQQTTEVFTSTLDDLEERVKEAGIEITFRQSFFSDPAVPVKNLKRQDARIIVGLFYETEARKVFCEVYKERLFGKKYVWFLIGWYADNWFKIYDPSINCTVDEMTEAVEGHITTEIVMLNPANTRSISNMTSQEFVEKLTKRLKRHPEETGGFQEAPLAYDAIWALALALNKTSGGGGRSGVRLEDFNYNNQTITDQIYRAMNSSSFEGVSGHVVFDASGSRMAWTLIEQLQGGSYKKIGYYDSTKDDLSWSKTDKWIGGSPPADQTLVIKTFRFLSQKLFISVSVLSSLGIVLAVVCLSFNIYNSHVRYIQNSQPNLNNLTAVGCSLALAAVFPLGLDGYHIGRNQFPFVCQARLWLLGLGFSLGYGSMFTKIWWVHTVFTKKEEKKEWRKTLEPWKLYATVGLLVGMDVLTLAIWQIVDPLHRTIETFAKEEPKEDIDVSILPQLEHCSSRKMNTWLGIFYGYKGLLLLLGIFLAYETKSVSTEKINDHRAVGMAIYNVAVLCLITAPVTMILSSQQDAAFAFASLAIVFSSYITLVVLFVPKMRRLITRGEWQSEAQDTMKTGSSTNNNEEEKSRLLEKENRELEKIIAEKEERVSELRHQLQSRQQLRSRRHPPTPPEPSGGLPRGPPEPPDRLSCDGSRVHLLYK
UniProt P35372, whole entry: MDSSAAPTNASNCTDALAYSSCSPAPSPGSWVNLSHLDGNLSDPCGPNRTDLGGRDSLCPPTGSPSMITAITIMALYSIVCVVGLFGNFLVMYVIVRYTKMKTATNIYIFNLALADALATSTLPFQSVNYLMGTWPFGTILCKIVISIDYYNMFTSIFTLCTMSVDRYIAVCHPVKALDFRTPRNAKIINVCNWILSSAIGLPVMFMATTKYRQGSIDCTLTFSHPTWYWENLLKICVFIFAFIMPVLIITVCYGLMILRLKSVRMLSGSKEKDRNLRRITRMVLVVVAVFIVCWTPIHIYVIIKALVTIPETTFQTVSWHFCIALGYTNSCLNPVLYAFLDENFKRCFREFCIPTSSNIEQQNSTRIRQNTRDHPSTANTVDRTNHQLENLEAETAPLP
UniProt P37288, whole entry: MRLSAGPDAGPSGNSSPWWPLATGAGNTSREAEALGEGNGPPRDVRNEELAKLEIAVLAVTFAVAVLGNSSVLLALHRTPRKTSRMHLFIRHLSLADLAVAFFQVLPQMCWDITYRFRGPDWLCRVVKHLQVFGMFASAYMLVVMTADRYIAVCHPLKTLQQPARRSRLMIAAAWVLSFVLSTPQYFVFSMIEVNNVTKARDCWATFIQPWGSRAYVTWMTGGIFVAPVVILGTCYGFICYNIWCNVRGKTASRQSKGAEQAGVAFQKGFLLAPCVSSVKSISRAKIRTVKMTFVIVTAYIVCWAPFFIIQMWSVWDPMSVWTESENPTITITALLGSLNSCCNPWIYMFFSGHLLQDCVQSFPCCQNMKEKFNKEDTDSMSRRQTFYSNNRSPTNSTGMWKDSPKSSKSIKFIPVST
UniProt P34998, 24-415 limits assumed: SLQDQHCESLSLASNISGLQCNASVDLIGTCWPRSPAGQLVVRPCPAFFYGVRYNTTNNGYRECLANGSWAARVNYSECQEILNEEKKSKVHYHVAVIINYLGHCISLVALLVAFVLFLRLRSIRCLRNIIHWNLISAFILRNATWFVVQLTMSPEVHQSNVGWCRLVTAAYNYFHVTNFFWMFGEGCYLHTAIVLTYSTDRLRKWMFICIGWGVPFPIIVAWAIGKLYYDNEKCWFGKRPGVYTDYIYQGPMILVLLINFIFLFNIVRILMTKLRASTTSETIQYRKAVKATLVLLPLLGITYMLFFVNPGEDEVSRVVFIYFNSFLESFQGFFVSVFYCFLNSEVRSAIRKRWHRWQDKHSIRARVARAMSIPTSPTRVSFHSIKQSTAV
UniProt P32239, whole entry: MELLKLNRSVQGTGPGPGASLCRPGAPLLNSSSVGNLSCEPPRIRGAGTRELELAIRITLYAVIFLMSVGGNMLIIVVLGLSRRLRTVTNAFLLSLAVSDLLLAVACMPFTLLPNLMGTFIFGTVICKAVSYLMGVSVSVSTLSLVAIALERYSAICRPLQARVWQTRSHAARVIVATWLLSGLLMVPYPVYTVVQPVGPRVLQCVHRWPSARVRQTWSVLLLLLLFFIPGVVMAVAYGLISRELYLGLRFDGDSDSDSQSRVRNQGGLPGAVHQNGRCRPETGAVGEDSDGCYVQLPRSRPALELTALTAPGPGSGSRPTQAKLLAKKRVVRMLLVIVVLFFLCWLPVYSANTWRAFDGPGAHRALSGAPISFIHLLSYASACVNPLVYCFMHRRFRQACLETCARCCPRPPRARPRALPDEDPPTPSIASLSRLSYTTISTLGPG
UniProt P11229, whole entry: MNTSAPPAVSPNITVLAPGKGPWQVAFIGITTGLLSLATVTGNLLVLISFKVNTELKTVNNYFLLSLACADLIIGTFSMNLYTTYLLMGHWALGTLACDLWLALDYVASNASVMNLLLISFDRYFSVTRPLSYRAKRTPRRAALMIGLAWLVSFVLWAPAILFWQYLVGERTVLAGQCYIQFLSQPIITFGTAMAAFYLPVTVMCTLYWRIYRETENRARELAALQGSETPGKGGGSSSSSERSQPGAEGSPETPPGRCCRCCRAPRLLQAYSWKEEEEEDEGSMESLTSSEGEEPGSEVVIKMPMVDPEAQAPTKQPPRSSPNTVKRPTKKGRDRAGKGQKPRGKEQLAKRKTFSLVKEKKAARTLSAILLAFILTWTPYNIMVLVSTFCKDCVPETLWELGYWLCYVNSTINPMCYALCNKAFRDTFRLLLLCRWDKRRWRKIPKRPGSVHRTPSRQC
UniProt P07510, 23-517 limits assumed: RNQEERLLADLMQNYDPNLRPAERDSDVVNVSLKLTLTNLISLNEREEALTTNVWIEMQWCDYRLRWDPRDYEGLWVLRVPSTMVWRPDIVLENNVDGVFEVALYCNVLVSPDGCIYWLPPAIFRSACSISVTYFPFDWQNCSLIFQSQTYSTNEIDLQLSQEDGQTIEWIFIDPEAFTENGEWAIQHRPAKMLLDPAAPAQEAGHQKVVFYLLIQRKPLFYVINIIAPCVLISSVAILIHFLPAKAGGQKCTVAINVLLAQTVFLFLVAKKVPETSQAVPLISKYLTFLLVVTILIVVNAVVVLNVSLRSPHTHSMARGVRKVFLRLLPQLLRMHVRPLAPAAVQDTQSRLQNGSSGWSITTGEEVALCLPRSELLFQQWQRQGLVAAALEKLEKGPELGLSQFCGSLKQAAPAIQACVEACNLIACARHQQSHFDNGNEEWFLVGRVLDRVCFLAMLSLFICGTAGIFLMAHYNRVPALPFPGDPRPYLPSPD
UniProt P21554, whole entry: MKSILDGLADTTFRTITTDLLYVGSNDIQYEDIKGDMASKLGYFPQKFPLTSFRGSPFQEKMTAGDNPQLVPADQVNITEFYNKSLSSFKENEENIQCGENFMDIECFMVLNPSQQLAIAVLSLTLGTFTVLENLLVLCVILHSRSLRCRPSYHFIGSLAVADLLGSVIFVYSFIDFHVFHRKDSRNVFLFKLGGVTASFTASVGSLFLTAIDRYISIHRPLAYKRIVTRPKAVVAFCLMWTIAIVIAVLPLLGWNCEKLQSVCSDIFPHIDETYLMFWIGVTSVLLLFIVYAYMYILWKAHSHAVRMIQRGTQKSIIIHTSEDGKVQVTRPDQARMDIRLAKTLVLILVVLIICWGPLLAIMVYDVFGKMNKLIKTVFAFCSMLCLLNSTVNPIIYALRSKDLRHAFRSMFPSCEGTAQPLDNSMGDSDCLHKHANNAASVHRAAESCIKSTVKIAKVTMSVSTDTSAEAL
UniProt P25105, whole entry: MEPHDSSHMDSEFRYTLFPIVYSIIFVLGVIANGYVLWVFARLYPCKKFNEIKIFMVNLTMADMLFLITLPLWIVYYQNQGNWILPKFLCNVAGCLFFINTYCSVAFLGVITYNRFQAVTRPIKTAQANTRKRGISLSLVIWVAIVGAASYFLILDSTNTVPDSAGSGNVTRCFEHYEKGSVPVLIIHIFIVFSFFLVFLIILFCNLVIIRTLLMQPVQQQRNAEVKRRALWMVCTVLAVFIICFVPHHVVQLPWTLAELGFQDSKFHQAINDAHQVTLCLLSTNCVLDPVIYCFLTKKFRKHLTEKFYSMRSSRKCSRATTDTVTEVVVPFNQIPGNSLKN
UniProt P21917, whole entry: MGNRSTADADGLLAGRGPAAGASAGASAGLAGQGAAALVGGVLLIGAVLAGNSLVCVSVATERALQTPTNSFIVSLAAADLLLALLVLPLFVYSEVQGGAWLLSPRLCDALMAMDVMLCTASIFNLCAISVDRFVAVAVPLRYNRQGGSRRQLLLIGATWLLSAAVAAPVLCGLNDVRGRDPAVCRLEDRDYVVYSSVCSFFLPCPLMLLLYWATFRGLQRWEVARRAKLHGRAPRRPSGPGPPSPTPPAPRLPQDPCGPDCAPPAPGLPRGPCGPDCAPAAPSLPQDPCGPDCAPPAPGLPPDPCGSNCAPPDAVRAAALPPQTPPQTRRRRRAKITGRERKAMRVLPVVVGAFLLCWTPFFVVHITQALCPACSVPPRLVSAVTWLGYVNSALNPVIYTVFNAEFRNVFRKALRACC
UniProt P32238, whole entry: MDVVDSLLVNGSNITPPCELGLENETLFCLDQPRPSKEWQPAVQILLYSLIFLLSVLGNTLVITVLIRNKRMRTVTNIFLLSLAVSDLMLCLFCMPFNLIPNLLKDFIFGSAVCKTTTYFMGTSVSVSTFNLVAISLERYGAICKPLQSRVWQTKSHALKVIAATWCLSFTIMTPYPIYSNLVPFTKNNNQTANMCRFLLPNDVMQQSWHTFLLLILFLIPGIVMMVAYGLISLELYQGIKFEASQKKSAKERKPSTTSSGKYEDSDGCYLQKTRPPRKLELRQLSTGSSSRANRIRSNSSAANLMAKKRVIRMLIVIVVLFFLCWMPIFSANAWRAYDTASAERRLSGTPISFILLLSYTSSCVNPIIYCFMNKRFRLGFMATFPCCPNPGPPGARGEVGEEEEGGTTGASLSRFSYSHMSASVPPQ

In patent US20240269228A1 (priority 2021, published 2024):

Tests used:
Assay in all cases: Radioligand binding assay (Eurofins Cerep)
Muscarinic M3 = Muscarinic M3 (Homo sapiens, UniProt P20309); conditions: 10 μM; radioligand [^3H]4-DAMP
Glucocorticoids receptor = Glucocorticoids receptor (Homo sapiens, UniProt P04150); conditions: 10 μM; radioligand [^3H]dexamethasone
[1] = target: γ-aminobutyric acid GABAB(1b) (Homo sapiens, UniProt Q9UBS5); conditions: 10 μM; radioligand [^3H]CGP 54626
Opioid μ (MOP) = Opioid μ (MOP) (Homo sapiens, UniProt P35372); conditions: 10 μM; radioligand [^3H]DAMGO
Vasopressin V1a = Vasopressin V1a (Homo sapiens, UniProt P37288); conditions: 10 μM; radioligand [^125I]AVP
Cannabinoid CB2 = Cannabinoid CB2 (Homo sapiens, UniProt P34972); conditions: 10 μM; radioligand [^3H]WIN 55212-2
Glutamate AMPA site = conditions: 10 μM; radioligand [^3H]AMPA; rat
[2] = target: Corticotropin-releasing factor CRF1 (Homo sapiens, UniProt P34998); conditions: 10 μM; radioligand [^125I]sauvagine
Cholecystokinin CCK2 = Cholecystokinin CCK2 (Homo sapiens, UniProt P32239); conditions: 10 μM; radioligand [^125I]CCK-8s
Muscarinic M1 = Muscarinic M1 (Homo sapiens, UniProt P11229); conditions: 10 μM; radioligand [^3H] pirenzepine
Nicotinic muscle-type = Nicotinic muscle-type (Homo sapiens, UniProt P02708+P07510+Q07001); conditions: 10 μM; radioligand [^125I]α-bungarotoxin
Cannabinoid CB1 = Cannabinoid CB1 (Homo sapiens, UniProt P21554); conditions: 10 μM; radioligand [^3H]CP55940
Endothelin ETB = Endothelin ETB (Homo sapiens, UniProt P24530); conditions: 10 μM; radioligand [^125I]Endothelin-3
[3] = target: Platelet activating factor (Homo sapiens, UniProt P25105); conditions: 10 μM; radioligand [^3H]C16-PAF
[4] = target: Vasoactive intestinal peptide 1 (VPAC1) (Homo sapiens, UniProt P32241); conditions: 10 μM; radioligand [^125I]VIP
Dopamine D4.4 = Dopamine D4.4 (Homo sapiens, UniProt P21917); conditions: 10 μM; radioligand [^3H] methyl-spiperone
Histamine H1 = Histamine H1 (Homo sapiens, UniProt P35367); conditions: 10 μM; radioligand [^3H] pyrilamine
[5] = tested on: Muscarinic (non-selective); conditions: 10 μM; radioligand [^3H]QNB; rat
Cholecystokinin CCK1 = Cholecystokinin CCK1 (Homo sapiens, UniProt P32238); conditions: 10 μM; radioligand [^125I]CCK-8s

## C[C@@H](O)[C@@H]1NC(=O)[C@H]2NC(=O)[C@@H](NC(=O)CN)CSSC[C@H](NC(=O)[C@H](CCCNC(=N)N)NC(=O)[C@@H]3CCCN3C(=O)[C@H](CC(=O)O)NC1=O)C(=O)N[C@@H](CCCNC(=N)N)C(=O)N[C@@H](Cc1ccc(O)c(I)c1)C(=O)N[C@@H](CCC(N)=O)C(=O)N[C@H](C(=O)N[C@H](CC(=O)N[C@@H](CCCNC(=N)N)C(=O)O)Cc1ccc(O)cc1)CSSC2(C)C
Muscarinic M3
  Inhibition [%]: −2.0%
Glucocorticoids receptor
  Inhibition [%]: 0.6%
[1]
  Inhibition [%]: −6.4%
Opioid μ (MOP)
  Inhibition [%]: 14.6%
Vasopressin V1a
  Inhibition [%]: 4.2%
Cannabinoid CB2
  Inhibition [%]: −8.3%
Glutamate AMPA site
  Inhibition [%]: −4.5%
[2]
  Inhibition [%]: −5.3%
Cholecystokinin CCK2
  Inhibition [%]: 11.8%
Muscarinic M1
  Inhibition [%]: 7.6%
Nicotinic muscle-type
  Inhibition [%]: −42.3%
Cannabinoid CB1
  Inhibition [%]: 27.6%
Endothelin ETB
  Inhibition [%]: −5.3%
[3]
  Inhibition [%]: 9.1%
[4]
  Inhibition [%]: 3.4%
Dopamine D4.4
  Inhibition [%]: −4.8%
Histamine H1
  Inhibition [%]: −0.2%
[5]
  Inhibition [%]: −0.4%
Cholecystokinin CCK1
  Inhibition [%]: −25.1%

This is a selection: effects in other tests are not listed, and their absence says nothing.
